Pooled drug test results. Numbers come from NIAID ChemDB, via PubChem.

Shared fields: tests in culture; organism: Hepatitis B virus; method: PCR; read-out: EC50

Two numbers with a dash give a range or band. Lines come from different laboratories, so protocols vary. ECn: concentration that inhibits the pathogen or its effect by n%. Blank or dashed fields: not listed here.

structure	cells	conditions	value
Cn1nc2cc(NS(=O)(=O)NCc3cccc(NC(=O)OC(C)(C)C)n3)ccc2c1C(=O)Nc1ccc(F)c(Cl)c1	HepAD38	-	100–1000 µM
Cc1c(C(=O)C(=O)NC(C)(C)c2ccnn2C)c(C)n(C)c1C(=O)Nc1ccc(F)c(C#N)c1	HepG2.2.15	-	0.001–0.0099 µM
C[C@@H]1CS(=O)(=O)[C@@](F)(c2ncc(Cc3ccccc3)s2)CN1C(=O)c1ccc(Br)c(Cl)c1	HepG2.117	-	<0.1 µM
C[C@@H](Oc1ccc([C@@H](C)NC(=O)c2c3n(c(=O)n2-c2ccc(OC4CC4)cc2)CCN(C(=O)c2ccc(Br)c(Cl)c2)C3)c(F)c1)C(N)=O	HepG2.117	-	0.5–5 µM
Cc1c(C(=O)C(=O)NC(C)(C)c2nccs2)c(C)n(C)c1C(=O)Nc1ccc(F)c(C(F)(F)F)c1	HepG2.2.15	-	0.001–0.0099 µM
CC(C)CNC(=O)c1cnn2c3c(c(=O)n(-c4ccccc4)c12)CCN(C(=O)c1ccc(Cl)c(Cl)c1)C3	HepG2.117	3 d	>5 µM
CC(C)Oc1ccc(-n2c(C(=O)NCc3ccccc3)c3n(c2=O)CCN([C@@H](c2ccc(Br)c(Cl)c2)C(F)(F)F)C3)cc1	HepG2.117	-	>5 µM
Cc1ncccc1-n1cc(S(=O)(=O)Nc2ccc3c(C(=O)Nc4ccc(F)c(Cl)c4)n(C)nc3c2)cn1	HepAD38	-	100–1000 µM
COc1ccc(-n2c(C(=O)NCc3ccccc3)c3n(c2=O)CCN(C(=O)c2ccc(Cl)c(Cl)c2)C3)c(C)c1	HepG2.117	-	>5 µM
O=C(c1cccc(Cl)c1F)N1CCS(=O)(=O)[C@H](c2cccs2)C1	HepG2.2.15	-	>5 µM
C#CCNC(=O)C(=O)c1c(C)c(C(=O)Nc2ccnc(Br)c2F)n(C)c1C	HepG2.2.15	-	0.001–0.0099 µM
COc1ccnc(-n2cc(S(=O)(=O)Nc3ccc4c(C(=O)Nc5ccc(F)c(Cl)c5)n(C)nc4c3)cn2)c1	HepAD38	-	<100 µM
CNC(=O)c1ccc(-n2c(=O)c3c(n4ncc(NCc5ccc(C#N)cc5)c24)CN(C(=O)c2ccc(Cl)c(Cl)c2)CC3)cc1	HepG2.117	3 d	0.5–5 µM
Cn1nc2cc(NS(=O)(=O)NCc3cnn(-c4ccccn4)c3)ccc2c1C(=O)Nc1ccc(F)c(Cl)c1	HepAD38	-	100–1000 µM
C[C@@H](NC(=O)C1C2CN(C(=O)c3ccc(Br)c(Cl)c3)CCN2C(=O)N1c1ccc(OC2COC2)cc1)c1ccccc1	HepG2.117	-	0.1–0.5 µM
C=CC1(NC(=O)C(=O)c2c(C)c(C(=O)Nc3ccc(F)c(C#N)c3)n(C)c2C)COC1	HepG2.2.15	-	0.001–0.0099 µM
Cc1c(NS(=O)(=O)c2ccc3c(C(=O)Nc4ccc(F)c(Cl)c4)n(C)nc3c2)cnn1C	HepAD38	-	100–1000 µM
CNC(=O)c1ccc(-n2c(=O)c3c(n4ncc(Cc5ccc(OC(F)(F)F)cc5)c24)CN(C(=O)c2ccc(Br)c(Cl)c2)CC3)cc1	HepG2.117	3 d	<0.1 µM
COc1ccc(-n2c(C(=O)NCc3ccccc3)c3n(c2=O)CCN(C(=O)c2ccc(Cl)c(Cl)c2)C3)cc1	HepG2.117	-	0.5–5 µM
Cn1nc2cc(NS(=O)(=O)c3cnn(-c4ccncc4)c3)ccc2c1C(=O)Nc1ccc(F)c(Cl)c1	HepAD38	-	<100 µM
O=C(Nc1ccc(F)c(Cl)c1)N1CCS(=O)(=O)[C@H](c2cccs2)C1	HepG2.2.15	-	0.5–5 µM
COc1ccc([C@H](C)NC(=O)c2c3n(c(=O)n2-c2ccc(OC4CC4)cc2)C[C@@H](C)N(C(=O)c2ccc(Br)c(Cl)c2)C3)cc1	HepG2.117	-	0.5–5 µM
O=C(c1ccc(Br)c(Cl)c1)N1CCS(=O)(=O)[C@@](F)(C(=O)NCc2ccccc2)C1	HepG2.117	-	0.5–5 µM
C#CC1(NC(=O)C(=O)c2c(C)c(C(=O)Nc3ccc(F)c(C#N)c3)n(C)c2C)CC(F)(F)C1	HepG2.2.15	-	<0.001 µM
Cc1ccc(COC(=O)Nc2ccc3nn(C)c(C(=O)Nc4ccc(F)c(Cl)c4)c3c2)cc1	HepAD38	-	>1000 µM
C#CC1(NC(=O)C(=O)c2c(F)c(C(=O)Nc3ccc(F)c(C#N)c3)n(C)c2C)CC(F)(F)C1	HepG2.2.15	-	<0.001 µM
Cn1nc2cc(NS(=O)(=O)c3ccccn3)ccc2c1C(=O)Nc1ccc(F)c(Cl)c1	HepAD38	-	100–1000 µM
CC(C)Oc1ccc(-n2c(C(=O)N[C@H](C)c3ccc(C#N)cc3)c3n(c2=O)CCN(C(=O)c2ccc(Br)c(Cl)c2)C3)cc1	HepG2.117	-	0.1–0.5 µM
Cn1nc2cc(NS(=O)(=O)c3cnn(-c4cc(F)ccn4)c3)ccc2c1C(=O)Nc1ccc(F)c(Cl)c1	HepAD38	-	>1000 µM
Cn1ncc2cc(-n3c(C(=O)NCc4ccccc4)c4n(c3=O)CCN(C(=O)c3ccc(Br)c(Cl)c3)C4)ccc21	HepG2.117	-	0.1–0.5 µM
O=C(c1ccc(Cl)c(Cl)c1)N1CCc2c(n3ncc(NCc4ccccc4)c3n(-c3ccccc3)c2=O)C1	HepG2.117	3 d	0.5–5 µM

The last 3 rows once more:

structure,cells,conditions,value
Cn1nc2cc(NS(=O)(=O)c3cnn(-c4cc(F)ccn4)c3)ccc2c1C(=O)Nc1ccc(F)c(Cl)c1,HepAD38,-,>1000 µM
Cn1ncc2cc(-n3c(C(=O)NCc4ccccc4)c4n(c3=O)CCN(C(=O)c3ccc(Br)c(Cl)c3)C4)ccc21,HepG2.117,-,0.1–0.5 µM
O=C(c1ccc(Cl)c(Cl)c1)N1CCc2c(n3ncc(NCc4ccccc4)c3n(-c3ccccc3)c2=O)C1,HepG2.117,3 d,0.5–5 µM